Test results taken from PMC3278406 (PLoS ONE, 2012).
Several values for one entry are separate records, joined by “and”; a condition that tells them apart may be missing. Equal entries are not always repeated.

Molecular target: Stx1 toxoid (Bacteriophage H30, UniProt P69178)

| Substance | Kd |
| --- | --- |
| Globotriaosyl ceramide, Ceramide trihexoside | 4.2 nM and 6.4 nM |
| Globotetraosyl ceramide | 3.9 nM |
